Laboratory results taken from US8017124.

Target: recombinant HIV-gp120 (HIV)
Assay: binding of partially purified salivary DMBT1 from deletion carriers against wild type donors

For “DMBT1 from saliva of donors carrying the DMBT1 germline deletion (shortened allele) (receptor)”, the decreased binding efficacy (against wild type DMBT1) was 30%.
